Reference: patent US20230338478A1 (University of Pennsylvania, published 2023)

How the values were obtained:
[1] = target: T1, WT SARS-CoV-2 RBD (purified recombinant, His6) (SARS-CoV-2); test: SPR, decoy-Fc captured on protein A/G chip, RBD injected, 1:1 fit
T1 construct: range […]

[2] = target: WT SARS-CoV-1 RBD (purified recombinant, His6) (SARS-CoV-1); test: as above

B1: ACE2-wt-Fc4 (Fc fusion)
chain: not shown
[1]
  Kd: 28.6 nM
  koff: 0.0144 s⁻¹
  kon: 505000 M⁻¹ s⁻¹
[2]
  Kd: 92.4 nM
  koff: 0.0394 s⁻¹
  kon: 426000 M⁻¹ s⁻¹
